Measured values from several laboratories, pooled; numbers as filed in NIAID ChemDB.

Shared fields: whole-cell or culture tests; agent: Mycobacterium tuberculosis

Blank or dashed fields: not listed here.

smiles	changes	dose	read-out	read by	cell line	strain or isolate	result
Cc1cc(C)n(C2=NS(=O)(=O)c3ccccc3N2C)n1	-	6.25 µg/mL	inhibition	BACTEC	-	H37Rv	16%
CCOC(=O)C1=C(C)NC(C)=C(C(=O)OCC)C1c1cn(-c2ccccc2)nc1-c1ccc(O)cc1	-	-	MIC	resazurin	VERO	H37Rv	1.56 µg/mL
COC(=O)C(C)NC(=O)c1c2nc3c(C(=O)NC(C)C(=O)OC)ccc(C)c3oc-2c(C)c(=O)c1N	-	12.5 µg/mL	inhibition	BACTEC	-	H37Rv	-56%
Cc1ccc2nc(/C=C(\O)c3ccccc3Cl)c(=O)oc2c1	-	-	MIC	-	-	H37Rv	>100 µg/mL
CC(=O)NC1[C@H](OCCCSCC(COC(C)=O)OC(C)=O)OC(COC(C)=O)[C@H](OC(C)=O)[C@@H]1O[C@@H]1OC(C)[C@H](OC(C)=O)[C@H](OC(C)=O)C1OC(C)=O	-	-	MIC	agar	-	H37Rv	3.13 µg/mL
O=C1c2ccoc2C(=O)c2oc(=O)ccc21	-	-	MIC bound	resazurin	-	H37Rv	>6.25 µg/mL
COC(=O)C1=C(C)NC(C)=C(C(=O)OC)C1c1cn(-c2ccccc2)nc1-c1ccc(C)cc1	-	6.25 µg/mL	inhibition	resazurin	-	H37Rv	71%
C=C[C@](C)(O)CC[C@H]1C(=C)CC[C@H]2C(C)(C)[C@@H](OC(C)=O)CC[C@]12C	-	-	MIC	-	-	-	>100 µg/mL
CO[C@H]1/C=C/O[C@@]2(C)Oc3c(C)c(O)c4c(O)c(c(/C=N/N5CCN(C)CC5)c(O)c4c3C2=O)NC(=O)/C(C)=C\C=C\[C@H](C)[C@H](O)[C@@H](C)[C@@H](O)[C@@H](C)[C@H](OC(C)=O)[C@@H]1C	-	-	MIC	agar	-	H37Rv	1.56 µg/mL
C.C=C1C[C@@]23CCC4[C@@](C)(CCC[C@@]4(C)C(=O)NNC(=O)c4ccncc4)C2CC[C@]1(O[C@@H]1O[C@H](COC(=O)O)[C@@H](OC(=O)O)[C@H](OC(=O)O)[C@H]1OC1O[C@H](COC(C)=O)[C@@H](OC(=O)O)[C@H](OC(=O)O)[C@H]1OC(=O)O)C3	-	-	MIC	-	-	H37Rv	5 µg/mL
CCSN(SCC)C(=S)c1ncnc(N(C)O)c1[N+](=O)[O-]	-	-	MIC	-	-	-	7.78 µg/mL
CC[C@@H](CO)NCCN[C@@H](CC)CO	-	-	MIC	-	-	05001 (H37RV)	1.6 µg/mL
O=C(CCCCC(=O)N/N=C/c1cccc([N+](=O)[O-])c1)N/N=C/c1cccc([N+](=O)[O-])c1	-	12.5 µg/mL	inhibition	BACTEC	-	H37Rv	-7%
CCCCCCCCO[C@@H]1O[C@@H](C(CO[C@@H]2O[C@@H](C(O)CO)[C@H](O)[C@H]2O)OC)[C@H](OC)[C@H]1OC	-	-	MIC	-	-	H37Ra	>128 µg/mL
CC(C)C1C=C2C(C(=O)C1=O)[C@@]1(C)CCCC(C)(C)[C@@H]1C[C@@H]2O	-	-	MIC	-	-	H37Rv	<12.5 µg/mL
CCOC(=O)C1=C(C)NC(C)=C(C(=O)OCC)C1c1cn(-c2ccccc2)nc1-c1ccc(C)cc1	-	6.25 µg/mL	inhibition	resazurin	-	H37Rv	84%
C=CCO[C@@H]1OC(COC(C)=O)[C@H](OC(C)=O)[C@H](O[C@@H]2OC(C)[C@H](OC(C)=O)[C@H](OC(C)=O)C2OC(C)=O)C1NC(C)=O	-	-	MIC	agar	-	H37Rv	12.5 µg/mL
Nc1ccc(-c2csc(-c3ccccc3)n2)c(Cl)c1	-	-	MIC bound	BACTEC	-	H37Rv	≤12.5 µg/mL
CCOC(=O)c1c(NC(=O)c2c(F)c(F)c(F)c(F)c2F)sc2c1CCN(CC)C2	Rifampicin-resistant S522L	-	MIC	resazurin	-	H37Rv	0.3 µM
CCOC(=O)C1=C(C)NC(C)=C(C(=O)OCC)C1c1cn(-c2ccccc2)nc1-c1ccc([N+](=O)[O-])cc1	-	6.25 µg/mL	inhibition	resazurin	VERO	H37Rv	93%
Cc1cc(-n2cccn2)cnc1S(=O)(=O)NC1CCN(Cc2ccncc2)CC1	-	-	MIC	-	-	-	6.25 µM
C=CCO[C@@H]1OC2COC(c3ccccc3)O[C@@H]2[C@H](O[C@@H]2OC(C)[C@H](OC(C)=O)[C@H](OC(C)=O)C2OC(C)=O)C1NC(C)=O	-	-	MIC	agar	-	H37Rv	6.25 µg/mL
CCCCCCCCO[C@@H]1O[C@@H](C(COCc2ccccc2)O[C@@H]2O[C@@H](C(COC(C)=O)OC(C)=O)[C@H](OC(C)=O)[C@H]2OC(C)=O)[C@H](OCc2ccccc2)[C@H]1OCc1ccccc1	-	-	MIC	-	-	H37Ra	>128 µg/mL
CO[C@H]1/C=C/O[C@@]2(C)Oc3c(C)c(O)c4c(O)c(c(/C=N/N5CCN(C)CC5)c(O)c4c3C2=O)NC(=O)/C(C)=C\C=C\[C@H](C)[C@H](O)[C@@H](C)[C@@H](O)[C@@H](C)[C@H](OC(C)=O)[C@@H]1C	Rifampicin-resistant D94N	-	MIC	resazurin	-	H37Rv	0.02 µM
O=C(NC1CCN(Cc2ccncc2)CC1)c1ccc(-n2cccn2)cc1	-	-	MIC	-	-	-	>200 µM
COC1=CC(=N/Br)/C=CC/1=N\Br	-	-	MIC bound	BACTEC	-	H37Rv	>12.5 µg/mL
Nc1sc(-c2ccccc2)cc1C(=O)O	-	-	EC50	resazurin	-	H37Rv	129 µM
COc1cc(OC)c2[nH]c3c(c(=O)c2c1)C(=O)c1[nH]c2c(OC)cc(OC)cc2c(=O)c1C3=O	-	12.5 µg/mL	inhibition	BACTEC	-	H37Rv	-5%
CCCCCCCCOC1OC([C@H](CO)OC2O[C@@H](C(O)CO)[C@H](O)[C@H]2O)[C@H](O)[C@H]1O	-	-	MIC	-	-	H37Ra	>128 µg/mL
CCOC(=O)c1c(NC(=O)c2cc(C(F)(F)F)cc(C(F)(F)F)c2)sc2c1CCCC2	-	-	MIC	resazurin	-	H37Rv	>200 µM
CO/N=C1\C[C@@H](C)O[C@@H](O[C@@H]2[C@@H](C)[C@H](O[C@H]3CC(C)N(CCC(C)C)C[C@H](C)O3)[C@@H](C)C(=O)O[C@H]([C@@H](C)CO[C@@H]3O[C@H](C)[C@@H](O)[C@@H](OC)[C@H]3OC)[C@H](C)[C@@H](OC(=O)CC(C)C)[C@@H](C)C(=O)[C@@](C)(OC(=O)N3CCO[C@@H](C)C3)C[C@@H]2C)[C@@H]1O	-	-	MIC	resazurin	-	H37Rv	0.863 µM
CCOC(=O)C1=C(C)NC(C)=C(C(=O)OCC)C1c1cn(-c2ccccc2)nc1-c1ccc(F)cc1	-	-	MIC	resazurin	VERO	H37Rv	0.02 µg/mL
CCOC(=O)c1c(C)[nH]c(C(c2ccccc2)c2[nH]c(C)c(C(=O)OCC)c2C)c1C	-	12.5 µg/mL	inhibition	BACTEC	-	H37Rv	85%
Nc1sc2c(c1C(=O)NCc1ccccc1)CCCC2	-	-	MIC	resazurin	-	H37Rv	>300 µM
C(=C1/CNC/C(=C\c2ccco2)C1=NNc1ccccc1)/c1ccco1	-	-	MIC	agar / visual reading	-	H37Rv	1.56 µg/mL
Cc1nc(/C=C2\C(=O)C=Cc3ccccc32)c(O)o1	-	12.5 µg/mL	inhibition	BACTEC	-	H37Rv	9%
COCCN(C1CCN(CC2C=Nc3c(C)cccc32)C1)S(C)(=O)=O	-	-	MIC	-	-	-	100 µM
O=C1c2ccccc2C(=O)c2sc(Nc3ccccc3Cl)nc21	-	-	MIC	BACTEC	VERO	H37Rv	0.4 µg/mL
Oc1cc(CCc2ccccc2)ccc1Oc1ccc(Cl)cc1Cl	-	-	MIC	-	-	Clinical isolate 5071	52 µM
CC(=O)c1ccc(NC(=O)C(=O)Nn2c(=S)[nH]c3ccccc3c2=O)cc1	-	-	MIC bound	BACTEC	-	H37Rv	>12.5 µg/mL
CON=C1/C(=C/c2ccco2)CNC/C1=C\c1ccco1	-	-	MIC	agar / visual reading	-	H37Rv	6.25 µg/mL
C.C=C1C[C@@]23CCC4[C@@](C)(CCC[C@@]4(C)C(=O)O)C2CC[C@]1(O[C@@H]1O[C@H](COC(=O)O)[C@@H](OC(=O)O)[C@H](OC(=O)O)[C@H]1OC1O[C@H](COC(C)=O)[C@@H](OC(=O)O)[C@H](OC(=O)O)[C@H]1OC(=O)O)C3	-	-	MIC	-	-	H37Rv	5 µg/mL
CCCCCCC[C@@]1(C)Cn2cc([N+](=O)[O-])nc2O1	-	-	MIC100	visual reading / absorbance	-	H37Rv	0.25 µg/mL
CN(C)c1ccc(/C=N/NC(=O)C(O)C(O)C(O)C(O)CO)c(Cl)c1	-	-	MIC bound	BACTEC	-	H37Rv	>12.5 µg/mL
O=S(=O)(NC1CCN(Cc2ccncc2)CC1)c1ccc(-n2cccn2)cc1	-	-	MIC	-	-	-	0.8–3.1 µM
CC(C)CCc1ccc(Oc2ccc(Cl)cc2Cl)c(O)c1	-	-	MIC	-	-	Clinical isolate 5071	60 µM
CO/N=C1\C[C@@H](C)O[C@@H](O[C@@H]2[C@@H](C)[C@H](O[C@H]3C[C@@H](C)N(C)C[C@H](C)O3)[C@@H](C)C(=O)O[C@H]([C@@H](C)CO[C@@H]3O[C@H](C)[C@@H](O)[C@@H](OC)[C@H]3OC)[C@H](C)[C@@H](OC(=O)CC(C)C)[C@@H](C)C(=O)[C@@](C)(OC(=O)N3C[C@@H](C)O[C@@H](C)C3)C[C@@H]2C)[C@@H]1O	-	-	MIC	resazurin	-	H37Rv	0.533 µM
CN1C(=O)C2(C)SSC1(C)C(=O)N2C	-	-	MIC bound	BACTEC	-	H37Rv	>12.5 µg/mL
C=C[C@](C)(O)CC[C@H]1C(=C)CC[C@H]2C(C)(C)[C@@H](O)CC[C@]12C	-	-	MIC	-	-	-	>100 µg/mL
NNC(=O)c1ccncc1	Rifampicin-resistant D94N	-	MIC	resazurin	-	H37Rv	0.32 µM
COC(=O)C1=C(C)NC(C)=C(C(=O)OC)C1c1cn(-c2ccccc2)nc1-c1ccc([N+](=O)[O-])cc1	-	6.25 µg/mL	inhibition	resazurin	-	H37Rv	100%
CCCCCC[C@@]1(C)Cn2cc([N+](=O)[O-])nc2O1	-	-	MIC100	visual reading / absorbance	-	H37Rv	0.01 µg/mL
N=C(N)N=C1/C(=C/c2ccco2)CNC/C1=C\c1ccco1	-	-	MIC	agar / visual reading	-	H37Rv	6.25 µg/mL
O=c1oc2ccccc2c2c1C(c1ccccc1)C=C(c1ccccc1)O2	-	-	MIC bound	BACTEC	-	H37Rv	>12.5 µg/mL
CO/N=C1\C[C@@H](C)O[C@@H](O[C@@H]2[C@@H](C)[C@H](O[C@H]3C[C@@H](C)N(C4CCC4)C[C@H](C)O3)[C@@H](C)C(=O)O[C@H]([C@@H](C)CO[C@@H]3O[C@H](C)[C@@H](O)[C@@H](OC)[C@H]3OC)[C@H](C)[C@@H](OC(=O)CC(C)C)[C@@H](C)C(=O)[C@@](C)(OC(=O)N3CCO[C@@H](C)C3)C[C@@H]2C)[C@@H]1O	-	-	MIC	resazurin	-	H37Rv	0.652 µM
C=CCn1c(-c2ccccn2)n[nH]c1=S	-	12.5 µg/mL	inhibition	BACTEC	-	H37Rv	0%
CCOC(=O)C1=C(C)NC(C)=C(C(=O)OCC)C1c1cn(-c2ccccc2)nc1-c1ccccc1	-	6.25 µg/mL	inhibition	resazurin	VERO	H37Rv	95%
CCOc1cc(C2=NNc3n[nH]c(=S)n3N2)ccc1O	-	12.5 µg/mL	inhibition	BACTEC	-	H37Rv	0%
CO/N=C1\C[C@@H](C)O[C@@H](O[C@@H]2[C@@H](C)[C@H](O[C@H]3C[C@@H](C)N(C)C[C@H](C)O3)[C@@H](C)C(=O)O[C@H]([C@@H](C)CO[C@@H]3O[C@H](C)[C@@H](O)[C@@H](OC)[C@H]3OC)[C@H](C)[C@@H](OC(=O)CC(C)C)[C@@H](C)C(=O)[C@@](C)(OC(=O)N3CCO[C@@H](C)C3)C[C@@H]2C)[C@@H]1O	-	-	MIC	resazurin	-	H37Rv	0.527 µM
COc1cc(OC)c2cc(C(=O)c3ccc(C#N)cc3)c(=O)oc2c1	-	-	MIC bound	BACTEC	-	H37Rv	>12.5 µg/mL
CC(C)C1=CC2=CC[C@@H]3C(C)(C)CCC[C@@]3(C)[C@@H]2CC1	-	-	MIC	-	-	-	>100 µg/mL
O=C1CS[C@H](c2ccccn2)N1CCN1C(=O)CS[C@H]1c1ccccn1	-	-	MIC bound	BACTEC	-	H37Rv	>12.5 µg/mL
CC(C)c1cc2c(cc1O)[C@@]1(C)CCCC(C)(C)C1CC2	-	-	EC50	-	-	H37Rv	>12.5 µg/mL
Nc1ccc(C(=O)N/N=C/c2ccccc2O)cc1	-	12.5 µg/mL	inhibition	BACTEC	-	H37Rv	-1%
CN[C@@H]1[C@H](O[C@H]2[C@H](O[C@H]3[C@H](O)[C@@H](O)[C@H](N=C(N)N)[C@@H](O)[C@@H]3N=C(N)N)O[C@@H](C)[C@]2(O)C=O)O[C@@H](CO)[C@H](O)[C@H]1O	-	-	MIC	-	-	05001 (H37RV)	25 µg/mL
NC(=O)C(=O)NNc1cccc(Cl)n1	-	12.5 µg/mL	inhibition	BACTEC	-	H37Rv	0%
CO/N=C1\C[C@@H](C)O[C@@H](O[C@@H]2[C@@H](C)[C@H](O[C@H]3C[C@@H](C)N(C)C[C@H](C)O3)[C@@H](C)C(=O)O[C@H]([C@@H](C)CO[C@@H]3O[C@H](C)[C@@H](O)[C@@H](OC)[C@H]3OC)[C@H](C)[C@@H](OC(=O)CC(C)C)[C@@H](C)C(=O)[C@@](C)(OC(=O)N3CCO[C@H](C)C3)C[C@@H]2C)[C@@H]1O	-	-	MIC	resazurin	-	H37Rv	0.796 µM

For reference, 5 entries again:

smiles,changes,dose,read-out,read by,cell line,strain or isolate,result
CCCCCCCCO[C@@H]1O[C@@H](C(COCc2ccccc2)O[C@@H]2O[C@@H](C(COC(C)=O)OC(C)=O)[C@H](OC(C)=O)[C@H]2OC(C)=O)[C@H](OCc2ccccc2)[C@H]1OCc1ccccc1,-,-,MIC,-,-,H37Ra,>128 µg/mL
COCCN(C1CCN(CC2C=Nc3c(C)cccc32)C1)S(C)(=O)=O,-,-,MIC,-,-,-,100 µM
COC(=O)C1=C(C)NC(C)=C(C(=O)OC)C1c1cn(-c2ccccc2)nc1-c1ccc([N+](=O)[O-])cc1,-,6.25 µg/mL,inhibition,resazurin,-,H37Rv,100%
CCSN(SCC)C(=S)c1ncnc(N(C)O)c1[N+](=O)[O-],-,-,MIC,-,-,-,7.78 µg/mL
Cc1cc(C)n(C2=NS(=O)(=O)c3ccccc3N2C)n1,-,6.25 µg/mL,inhibition,BACTEC,-,H37Rv,16%

Inhibition is in % at the dose shown (toxicity tests: loss of growth or viability). MIC bound comes from a single tested concentration. A number after MIC or MFC names an inhibition level or a share of isolates. a–b is a range or a potency band. Neighbouring rows are from separate reports. ECn is the concentration giving n% inhibition of infection, replication or growth.